Counter-ions that a name gives are not always drawn.
Test system: pain response in mice induced by Hot Plate
Type: in vivo, Kunming mice
Conditions: for difference to crotoxin on a molar basis: hot-plate model, doses compared on a molar basis

CC(=O)Oc1ccccc1C(=O)O [Acetylsalicylic acid, acetylsalicylic acid]
difference to crotoxin on a molar basis: over 300,000 fold

CCOC(=O)C1(c2ccccc2)CCN(C)CC1 [Dolantin, Meperidine hydrochloride]
quantity administered relative to the quantity of crotoxin (Dolantin 40 mg/kg vs crotoxin 90 mcg/kg, almost equivalent effect): over 400 times | difference to crotoxin on a molar basis: 35,000 fold

From patent publication US20060034823A1, “Method of production and use of crotoxin as an analgesic” (priority 2004, published 2006)
